Results of unrelated studies side by side (data: NIAID ChemDB).

Common to all: tests in culture; agent: HIV-1; read-out: EC50

Two numbers with a dash give a range or band. ECn: concentration that inhibits the pathogen or its effect by n%. An empty or dashed field is not shown. Lines come from different laboratories, so protocols vary.

compound	strain or isolate	cell line	changes	method	result
C[C@@H]1CN(C(=O)c2ccccc2)CCN1C(=O)C(=O)c1c[nH]c2c(NS(C)(=O)=O)cccc12		HeLa		luciferase / reporter gene	<1 µM
O=C(O)c1cc(-n2cccc2)ccc1Cl	93TH051 X4R5 CLADE E	PBMC/5.25M7		luciferase / cell fusion	57.3 µM
COc1cc(F)ccc1OCCN(C)c1ccc(-c2cnc(C)c([C@H](OC(C)(C)C)C(=O)O)c2N2CCC(C)(C)CC2)cn1	NL4-3	MT-2		luminescence	0.0008 µM
CC(C)=CCOc1cc(NC(=S)c2ccoc2C)ccc1Cl	Thiazolobenzimidazole-resistant (RT V108I)	CEM + CEM-SS	RT-V108I	cytopathic effect / XTT	0.1 µM
CC(C)C1=C2[C@H]3CC[C@@H]4[C@@]5(C)CC[C@H](OC(=O)[C@H]6C[C@@H](C(=O)O)C6(C)C)C(C)(C)[C@@H]5CC[C@@]4(C)[C@]3(C)CC[C@@]2(CC(=O)NCC2CCC2)CC1=O	92HT599	MT-2		p24 / ELISA	<1 µM
Cc1cc(S(N)(=O)=O)ccc1NC(=O)COc1ccc(Cl)cc1C(=O)c1cc(F)cc(C#N)c1	HXB2	HeLa + HELA CD4+	RT-V106I Y181C	β-galactosidase	0.011–0.1 µM
COC(=O)C(O)C(O)C(=O)Nc1cccc2c(C(=O)C(=O)N3CCN(C(=O)c4ccccc4)C[C@H]3C)c[nH]c12		HeLa		luciferase / reporter gene	<1 µM
Cc1ncc(-c2ccc(OCCOc3ccccc3Cl)cn2)c(N2CCC(C)(C)CC2)c1[C@H](OC(C)C)C(=O)O	NL4-3	MT-2		luminescence	0.0025 µM
C[C@@H]1CN(C(=O)c2ccccc2)CCN1C(=O)C(=O)c1c[nH]c2c(NC(=O)Nc3cccc(B(O)O)c3)cccc12		HeLa		luciferase / reporter gene	<1 µM
CCCc1cc(=O)oc2c3c(c4c(c12)OC(C)(C)CC4)O[C@@H](C)[C@H](C)[C@@H]3O	NL4-3	CEM + CEM-SS	RT-K103N	XTT	3.8 µM
CC(C)C1=C2[C@H]3CC[C@@H]4[C@@]5(C)CC[C@H](OC(=O)[C@H]6C[C@@H](C(=O)O)C6(C)C)C(C)(C)[C@@H]5CC[C@@]4(C)[C@]3(C)CC[C@@]2([C@@H](O)CNC(=O)C(C)(C)NC(=O)c2ncccn2)CC1=O	92HT599	MT-2		p24 / ELISA	<1 µM
Cc1cc(S(N)(=O)=O)ccc1NC(=O)COc1ccc(Cl)cc1C(=O)c1cccc(C#N)n1	HXB2 (RT-K103N Y181C) Recombinant	HeLa + HELA CD4+	RT-K103N Y181C	β-galactosidase	<0.01 µM
Cc1ccc(OCCOc2ccc(-c3cnc(C)c([C@H](OC(C)(C)C)C(=O)O)c3N3CCC(C)(C)CC3)cn2)cc1	NL4-3	MT-2		luminescence	0.0026 µM
Cc1cc(C#N)cc(C(=O)c2cc(Cl)ccc2OCC(=O)Nc2ccc(S(N)(=O)=O)cc2C)c1	IIIB	MT-4		cytopathic effect / propidium iodide	<0.01 µM
CC(C)CN(C[C@@H](O)[C@H](Cc1ccccc1)NC(=O)O[C@H]1CCOC1)S(=O)(=O)c1ccc(N)cc1	T20760	MT-4	L10F I47I/V	reporter gene	1496 nM
CC(=O)c1c(C)nc(-c2ccccc2)nc1NC(=O)c1ccccc1	B-HXB2	MT-4		GFP / fluorescence	0.24 µM
COc1ccc(C(=O)NC(C)(C)C(=O)NC[C@H](O)[C@@]23CC[C@]4(C)[C@H](CC[C@@H]5[C@@]6(C)CC[C@H](OC(=O)[C@H]7C[C@@H](C(=O)O)C7(C)C)C(C)(C)[C@@H]6CC[C@]54C)C2=C(C(C)C)C(=O)C3)cc1	92HT599	MT-2		p24 / ELISA	<1 µM
Cc1cc2[nH]cnc2cc1NC(=O)COc1ccc(Cl)cc1C(=O)c1cc(F)cc(C(F)(F)F)c1	IIIB	MT-4		cytopathic effect / propidium iodide	<0.01 µM
Cc1ncc(-c2cnc(OC(Cc3ccccc3)C(F)(F)F)c(F)c2)c(N2CCC(C)(C)CC2)c1[C@H](OC(C)(C)C)C(=O)O	NL4-3	MT-2		luminescence	0.0199 µM
N#CC(=C1CCN(C(=O)C(=O)c2c[nH]c3c(NC(=O)NCCC(=O)O)cccc23)CC1)c1ccccc1		HeLa		luciferase / reporter gene	<1 µM
CC(C)C1=C2[C@H]3CC[C@@H]4[C@@]5(C)CC[C@H](OC(=O)[C@H]6C[C@@H](C(=O)O)C6(C)C)C(C)(C)[C@@H]5CC[C@@]4(C)[C@]3(C)CC[C@@]2([C@@H](O)CNCC2(NC(=O)c3ccc(Cl)cc3)CCCCC2)CC1=O	92HT599	MT-2		p24 / ELISA	<1 µM
CC1(C)CC=C(c2cn(-c3nccc(C(=O)NC4CCC(N5CC6CCC(C5)O6)CC4)n3)c3ccc(F)c([C@H](OC(C)(C)C)C(=O)O)c23)CC1	NL4-3	MT-4	E92Q/G140S/Q148H	luminescence	0.0052 µM
Cc1cc(C#N)cc(C(=O)c2cc(Cl)ccc2OCC(=O)Nc2ccc(S(N)(=O)=O)nc2C)c1	HXB2	HeLa + HELA CD4+	RT-Y181C	β-galactosidase	<0.01 µM
C#C[C@@]1(CO)C=C[C@H](n2cc(C)c(=O)[nH]c2=O)O1	Clinical isolate	MT-2	K103N/M184V	recombinant virus assay	0.8721 µM
CC1CC(C)CN(S(=O)(=O)c2ccccc2[N+](=O)[O-])C1	52534-2	HeLa		GFP / fluorescence	1 µM
Cc1ncc(-c2ccc(OC3CCCCC3)cn2)c(N2CCC(C)(C)CC2)c1[C@H](OC(C)(C)C)C(=O)O	NL4-3	MT-2		luminescence	0.0063 µM
CC(=O)c1ccc(C)cc1NC(C(N)=O)c1c(Cl)cccc1Cl	IIIB	CEM + CEM-SS		cytopathic effect / XTT	0.01 µM
Cc1nc2ccccc2c(-c2cc(F)c3c(c2C)CCCO3)c1[C@H](OC(C)(C)C)C(=O)O	NL4-3	MT-4	T124N/T125A	luminescence	0.039 µM
Cc1ncc(-c2ccc(OCC3CCC(C)CC3)cn2)c(N2CCC(C)(C)CC2)c1[C@H](OC(C)(C)C)C(=O)O	NL4-3	MT-2		luminescence	0.0016 µM
C[C@H](Cn1cnc2c(N)ncnc21)OCP(=O)(O)O	Clinical isolate	MT-2	K65R M184V	recombinant virus assay	0.006 µM
CC(C)C1=C2[C@H]3CC[C@@H]4[C@@]5(C)CC[C@H](OC(=O)[C@H]6C[C@@H](C(=O)O)C6(C)C)C(C)(C)[C@@H]5CC[C@@]4(C)[C@]3(C)CC[C@@]2(CC(=O)NC(F)(CO)CNC(=O)c2ccc(Cl)cc2)CC1=O	92HT599	MT-2		p24 / ELISA	<1 µM
CC(C)=CCOc1cc(NC(=S)c2ccsc2C)ccc1Cl	NL4-3 (RT Y181C)	CEM + CEM-SS	RT-Y181C	cytopathic effect / XTT	0.03 µM
Cc1ncc(-c2ccc(NCCOc3ccc(Cl)cc3)nc2)c(N2CCC(C)(C)CC2)c1[C@H](OC(C)(C)C)C(=O)O	NL4-3	MT-2		luminescence	0.0032 µM
CCC(=O)c1ccc(F)c([C@@H]2C[C@@H]2NC(=O)Nc2ccc(C#N)cn2)c1O	LAI	TZM-bl	NNRTI-resistant (RT V179D)	β-galactosidase / luminescence	0.00073 µM
O=C(COc1ccc(Cl)cc1C(=O)c1nccs1)Nc1ccc2[nH]ncc2c1	Nevirapine-resistant (RT Y181C)	MT-4	RT-Y181C	cytopathic effect / propidium iodide	0.101–1 µM